For three compounds, selectivity ratio results are on record in ChEMBL document CHEMBL4311996, “Synthesis and biological evaluation of 3-acyl-2-phenylamino-1,4-dihydroquinolin-4(1H)-one derivatives as potential MERS-CoV inhibitors” (Bioorg Med Chem Lett, 2019).

The data set in a line: Selectivity index, ratio of CC50 for African green monkey Vero cells to IC50 for MERS-CoV/KOR/KNIH/002_05_2015 infected in African green monkey Vero cells expressing viral spike protein. As to conditions: read-out: Ratio CC50/IC50. Format: toxicity.

Turning to `CC(C)C(=O)c1c(Nc2ccc(F)cc2F)[nH]c2c(Cl)cc(Cl)c(Cl)c2c1=O`, the selectivity ratio is 231.
In the case of `CC(=O)c1c(NC(C)C)[nH]c2c(C(F)(F)F)cc(Cl)cc2c1=O` it was 33; in that of `CC(=O)c1c(Nc2ccc(F)cc2F)[nH]c2c(F)cc(Cl)cc2c1=O`, 26.
